Data on three molecules can be found in patent US20140342996A1, “Treatments for gastrointestinal disorders” (published 2014).

Test [1] concerns the target Guanylate cyclase C (GC-C) on human T84 cells (human), P25092. Briefly: cell-based or functional assay.
Test [2] shares this target. The experiment in a line: competitive radioligand binding, [125I]-STp on intact T84 cells.
Test [3] has the same target. The experiment in a line: competitive radioligand binding, [125I]-STp on intact T84 cells, pH 5.
Test [4] has the same target. Briefly: competitive radioligand binding, [125I]-STp on intact T84 cells, pH 8.

Usually Ki stands for the equilibrium dissociation constant of an inhibitor or competing ligand from its target.

Regarding DDDCCELCCNPACTGC (modifications not checked) [Peptide 20], the Ratio EC50 pH 8/EC50 pH 5, cGMP response in T84 cells in test [1] is 90.
With CCELCCNPACTGCY (modifications not checked) [Peptide 1], the Ratio Ki pH 8/Ki pH 5 in test [2] was 0.69. Besides, the Ki in test [3] turned out to be 2.9 nM. In test [1], the EC50 nM, cGMP response in T84 cells, pH 5 came to 13.4 nM; the EC50 nM, cGMP response in T84 cells, pH 8 came out at 114 nM; the Ratio EC50 pH 8/EC50 pH 5, cGMP response in T84 cells was 8.5. The Ki in test [4] stood at 2 nM.
With EEECCEYCCNPACTGCY (modifications not checked) [Peptide 22], the EC50 nM, cGMP response in T84 cells, pH 8 in test [1] is above 1 mM.
